{"source": "patent US20230174951A1", "about": "“PHENOL-RICH GRAPES” (THE STATE OF ISRAEL, MINISTRY OF AGRICULTURE & RURAL …, priority 2020, published 2023)", "system": "V. vinifera cv. Gamay Red cell culture", "assay": "Phe feeding of control, AroG* and AroG* + FLS-22 lines, metabolite levels", "format": "cell-based, Vitis vinifera", "details": "5 mM Phe feeding, 9 days, compared to non-fed control, mean ± SE, n = 3; for Metabolite level, AroG* + FLS line: line 22", "data": [{"molecule": "N[C@@H](Cc1ccccc1)C(=O)O", "note": "[Phe, Phenylalanine]", "values": [{"measurement": "Metabolite level, AroG* line", "result": "3.86±0.58", "unit": "fold change"}, {"measurement": "Metabolite level, Control line", "result": "2.35±0.36", "unit": "fold change"}, {"measurement": "Metabolite level, AroG* + FLS line", "result": "3.72±0.06", "unit": "fold change"}]}, {"molecule": "O=c1c(O)c(-c2cc(O)c(O)c(O)c2)oc2cc(O)cc(O)c12", "note": "[Myricetin, myricetin]", "values": [{"measurement": "Metabolite level, AroG* line", "result": "1.79±0.27", "unit": "fold change"}, {"measurement": "Metabolite level, Control line", "result": "1.2±0.17", "unit": "fold change"}, {"measurement": "Metabolite level, AroG* + FLS line", "result": "4.38±0.15", "unit": "fold change"}]}, {"molecule": "OC[C@H]1O[C@@H](Oc2cc(O)cc(/C=C\\c3ccc(O)cc3)c2)[C@H](O)[C@@H](O)[C@@H]1O", "note": "(relative stereo) [cis-Piceid, cis-piceid]", "values": [{"measurement": "Metabolite level, AroG* line", "result": "1.17±0.08", "unit": "fold change"}, {"measurement": "Metabolite level, Control line", "result": "0.76±0.05", "unit": "fold change"}, {"measurement": "Metabolite level, AroG* + FLS line", "result": "1.66±0.12", "unit": "fold change"}]}, {"molecule": "delphindin-3 -coumaroyl-glucoside [Delphindin-3-coum-glu]", "values": [{"measurement": "Metabolite level, AroG* line", "result": "1.52±0.29", "unit": "fold change"}, {"measurement": "Metabolite level, Control line", "result": "2.41±0.36", "unit": "fold change"}, {"measurement": "Metabolite level, AroG* + FLS line", "result": "6.55±0.87", "unit": "fold change"}]}, {"molecule": "CC(=O)OC[C@H]1O[C@@H](Oc2cc3c(O)cc(O)cc3[o+]c2-c2ccc(O)c(O)c2)[C@H](O)[C@@H](O)[C@@H]1O", "note": "[Cyanidin-3-acet-glu, cyanidin-3 -acetyl-glucoside]", "values": [{"measurement": "Metabolite level, AroG* line", "result": "0.71±0.09", "unit": "fold change"}, {"measurement": "Metabolite level, Control line", "result": "1.01±0.14", "unit": "fold change"}, {"measurement": "Metabolite level, AroG* + FLS line", "result": "1.42±0.08", "unit": "fold change"}]}, {"molecule": "OC[C@H]1O[C@@H](Oc2cc3c(O)cc(O)cc3[o+]c2-c2ccc(O)c(O)c2)[C@H](O)[C@@H](O)[C@@H]1O", "note": "[Cyanidin-3-glu, cyanidin-3 -glucoside]", "values": [{"measurement": "Metabolite level, AroG* line", "result": "0.92±0.08", "unit": "fold change"}, {"measurement": "Metabolite level, Control line", "result": "1.35±0.17", "unit": "fold change"}, {"measurement": "Metabolite level, AroG* + FLS line", "result": "1.69±0.24", "unit": "fold change"}]}, {"molecule": "CC(=O)OC[C@H]1O[C@@H](Oc2cc3c(O)cc(O)cc3[o+]c2-c2cc(O)c(O)c(O)c2)[C@H](O)[C@@H](O)[C@@H]1O", "note": "[Delphindin-3-acet-glu, delphindin-3 -acetyl-glucoside]", "values": [{"measurement": "Metabolite level, AroG* line", "result": "2.8±0.28", "unit": "fold change"}, {"measurement": "Metabolite level, Control line", "result": "3.95±0.92", "unit": "fold change"}, {"measurement": "Metabolite level, AroG* + FLS line", "result": "3.43±0.12", "unit": "fold change"}]}, {"molecule": "OC[C@H]1O[C@@H](Oc2cc(O)cc(/C=C/c3ccc(O)cc3)c2)[C@H](O)[C@@H](O)[C@@H]1O", "note": "(relative stereo) [t-Piceid, trans-piceid]", "values": [{"measurement": "Metabolite level, AroG* line", "result": "3.06±0.1", "unit": "fold change"}, {"measurement": "Metabolite level, Control line", "result": "1.39±0.12", "unit": "fold change"}, {"measurement": "Metabolite level, AroG* + FLS line", "result": "3.66±0.13", "unit": "fold change"}]}, {"molecule": "Oc1ccc(/C=C/c2cc(O)cc3c2[C@@H](c2cc(O)cc(O)c2)[C@H](c2ccc(O)cc2)O3)cc1", "note": "[ε-Viniferin, ε-viniferin]", "values": [{"measurement": "Metabolite level, AroG* line", "result": "30.79±4.65", "unit": "fold change"}, {"measurement": "Metabolite level, Control line", "result": "4.35±0.13", "unit": "fold change"}, {"measurement": "Metabolite level, AroG* + FLS line", "result": "24.79±3.22", "unit": "fold change"}]}, {"molecule": "cyanidin-3 -coumaroyl-glucoside [Cyanidin-3-coum-glu]", "values": [{"measurement": "Metabolite level, AroG* line", "result": "0.62±0.1", "unit": "fold change"}, {"measurement": "Metabolite level, Control line", "result": "1.3±0.15", "unit": "fold change"}, {"measurement": "Metabolite level, AroG* + FLS line", "result": "2.32±0.38", "unit": "fold change"}]}, {"molecule": "COc1cc(-c2[o+]c3cc(O)cc(O)c3cc2OC2O[C@H](COC(=O)C=Cc3ccc(O)cc3)[C@@H](O)[C@H](O)[C@H]2O)cc(O)c1O", "note": "(stereo partly drawn) [Petunidin-3 -coum-glu, petunidin-3-coum-glu]", "values": [{"measurement": "Metabolite level, AroG* line", "result": "2.04±0.32", "unit": "fold change"}, {"measurement": "Metabolite level, Control line", "result": "1.59±0.02", "unit": "fold change"}, {"measurement": "Metabolite level, AroG* + FLS line", "result": "9.64±1.27", "unit": "fold change"}]}, {"molecule": "COc1cc(-c2[o+]c3cc(O)cc(O)c3cc2O[C@@H]2O[C@H](COC(C)=O)[C@@H](O)[C@H](O)[C@H]2O)cc(O)c1O", "note": "[Petunidin-3-acet-glu, petunidin-3-acetyl-glucoside]", "values": [{"measurement": "Metabolite level, AroG* line", "result": "2.59±0.44", "unit": "fold change"}, {"measurement": "Metabolite level, Control line", "result": "1.99±0.37", "unit": "fold change"}, {"measurement": "Metabolite level, AroG* + FLS line", "result": "5.23±0.57", "unit": "fold change"}]}, {"molecule": "OC[C@H]1O[C@@H](Oc2cc3c(O)cc(O)cc3[o+]c2-c2cc(O)c(O)c(O)c2)[C@H](O)[C@@H](O)[C@@H]1O", "note": "[Delphindin-3-glu, delphindin-3 -glucoside]", "values": [{"measurement": "Metabolite level, AroG* line", "result": "3.07±0.12", "unit": "fold change"}, {"measurement": "Metabolite level, Control line", "result": "2.72±0.38", "unit": "fold change"}, {"measurement": "Metabolite level, AroG* + FLS line", "result": "5.7±0.73", "unit": "fold change"}]}, {"molecule": "COc1cc(-c2[o+]c3cc(O)cc(O)c3cc2O[C@@H]2O[C@H](CO)[C@@H](O)[C@H](O)[C@H]2O)cc(O)c1O", "note": "[Petunidin-3-glu, petunidin-3-glucoside]", "values": [{"measurement": "Metabolite level, AroG* line", "result": "2.2±0.22", "unit": "fold change"}, {"measurement": "Metabolite level, Control line", "result": "2.09±0.29", "unit": "fold change"}, {"measurement": "Metabolite level, AroG* + FLS line", "result": "5.48±0.63", "unit": "fold change"}]}, {"molecule": "Oc1cc(O)c2c(c1)O[C@H](c1cc(O)c(O)c(O)c1)[C@H](O)C2", "note": "[Epigallocatechin, epigallocatechin]", "values": [{"measurement": "Metabolite level, AroG* line", "result": "1.15±0.14", "unit": "fold change"}, {"measurement": "Metabolite level, Control line", "result": "1.17±0.16", "unit": "fold change"}, {"measurement": "Metabolite level, AroG* + FLS line", "result": "1.76±0.34", "unit": "fold change"}]}, {"molecule": "Oc1ccc(C=Cc2cc(O)cc(O)c2)cc1", "note": "[Resveratrol, resveratrol]", "values": [{"measurement": "Metabolite level, AroG* line", "result": "23.46±2.26", "unit": "fold change"}, {"measurement": "Metabolite level, Control line", "result": "4.76±0.36", "unit": "fold change"}, {"measurement": "Metabolite level, AroG* + FLS line", "result": "17.45±0.24", "unit": "fold change"}]}, {"molecule": "O=C(O)/C=C/c1ccc(O)cc1", "note": "[p-Coumaric acid, p-coumaric acid]", "values": [{"measurement": "Metabolite level, AroG* line", "result": "1.64±0.21", "unit": "fold change"}, {"measurement": "Metabolite level, Control line", "result": "5.23±0.81", "unit": "fold change"}, {"measurement": "Metabolite level, AroG* + FLS line", "result": "18.31±3.54", "unit": "fold change"}]}]}
